Results of unrelated studies side by side (data: NIAID ChemDB).

All rows: growth or infection tests; species: Human cytomegalovirus; cells: HFF; read-out: EC50

ECn is the concentration giving n% inhibition of infection, replication or growth. Neighbouring rows are from separate reports.

CCCCCCCCCCCCCCCCCCOC[C@H](COP(=O)(O)CO[C@H](CO)Cn1ccc(N)nc1=O)OCc1ccccc1 ; strain: Toledo ; method: plaque count ; value: 0.006 µM
CC(C)Nc1nc2cc(Cl)c(Cl)cc2n1[C@H]1O[C@@H](CO)[C@H](O)[C@@H]1O ; strain: AD169 ; method: plaque count ; value: 2.2 µM
OC[C@@H]1O[C@@H](n2c(Cl)nc3cc(Cl)c(Cl)cc32)[C@H](O)[C@@H]1O ; strain: C4 (BDCRB- maribavir-resistant) ; method: plaque count ; value: 56 µM
CCCCCCCC/C=C\CCCCCCCCOCCOP(=O)(O)CO[C@H](CO)Cn1ccc(N)nc1=O ; strain: GDGrP53 ; method: plaque count ; value: 0.05 µM
O[C@@H]1[C@H](O)[C@H](O)CO[C@H]1n1c(Br)nc2cc(Cl)c(Cl)cc21 ; strain: C8805/37-1-1 (drug-resistant) ; method: plaque count ; value: 2.8 µM
CC(C)Nc1nc2cc(Cl)c(Cl)cc2n1[C@H]1O[C@@H](CO)[C@H](O)[C@@H]1O ; strain: C4 (BDCRB-resistant) ; method: plaque count ; value: 100 µM
OC[C@H]1O[C@@H](n2c(Br)nc3cc(Cl)c(Cl)cc32)[C@H](O)[C@@H]1O ; strain: 1117R (drug-resistant) ; method: plaque count ; value: 2.8 µM
Nc1nc(NC2CC2)c2ncn(C=C3CC3CO)c2n1 ; strain: C8706/13-1-1 ; method: plaque count ; value: 7.3 µM
Nc1ccn(C[C@@H](CO)OCP(=O)(O)O)c(=O)n1 ; strain: 1117-R ; method: plaque count ; value: 1.6 µM
OC[C@H]1O[C@@H](n2c(Br)nc3cc(Cl)c(Cl)cc32)[C@H](O)[C@@H]1O ; strain: TOWNE ; method: plaque count ; value: 1 µM
Nc1nc2c(ncn2COC(CO)CO)c(=O)[nH]1 ; strain: VR4955R (drug-resistant) ; method: plaque count ; value: 700 µM
CCCCCCCCCCCCOCCCOP(=O)(O)CO[C@H](CO)Cn1ccc(N)nc1=O ; strain: GDGrP53 ; method: plaque count ; value: 0.1 µM
Nc1nc2c(ncn2C=C2CC2CO)c(=O)[nH]1 ; strain: C8914-6 ; method: plaque count ; value: 10.3 µM
O[C@@H]1[C@H](O)CO[C@H]1n1c(Cl)nc2cc(Cl)c(Cl)cc21 ; strain: TOWNE ; method: virus yield ; value: <0.41 µM
CCCCCCCC/C=C\CCCCCCCOCCCOP1(=O)CO[C@@H](Cn2ccc(N)nc2=O)CO1 ; strain: AD169 ; method: plaque count ; value: 0.003 µM
Nc1nc2c(ncn2/C=C2/CC2(CO)CO)c(=O)[nH]1 ; strain: AD169 ; method: plaque count ; value: 1.2 µM
CN(C)c1cccc2c(S(=O)(=O)Nc3ccc(NC(=O)C(C)(C)CO)cc3)cccc12 ; strain: D10 (BDCRB-resistant) ; method: plaque count ; value: 2.4 µM
CC(C)Nc1nc2cc(Cl)c(Cl)cc2n1[C@H]1O[C@@H](CO)[C@H](O)[C@@H]1O ; strain: 2916 (bdcrb maribavir-resistant) ; method: virus yield ; value: 57 µM
COC(=O)[C@H](C)NP(=O)(OCC1C/C1=C/n1cnc2c(NC3CC3)nc(N)nc21)Oc1ccccc1 ; strain: AD169 ; method: cytopathic effect ; value: 0.9 µM
CCCCCCCCCCCCCCCCOP(=O)(O)CO[C@H](CO)Cn1ccc(N)nc1=O ; strain: DAVIS ; method: plaque count ; value: 0.005 µM

For reference, 3 entries again:

| structure | strain | method | value |
|---|---|---|---|
| Nc1ccn(C[C@@H](CO)OCP(=O)(O)O)c(=O)n1 | 1117-R | plaque count | 1.6 µM |
| Nc1nc2c(ncn2COC(CO)CO)c(=O)[nH]1 | VR4955R (drug-resistant) | plaque count | 700 µM |
| CCCCCCCC/C=C\CCCCCCCCOCCOP(=O)(O)CO[C@H](CO)Cn1ccc(N)nc1=O | GDGrP53 | plaque count | 0.05 µM |